For one compound, neuroprotection results are on record in patent publication US12590094B2, “Compounds for the treatment of neurodegenerative and metabolic disorders” (UNIVERSITY OF FLORIDA RESEARCH FOUNDATION, INCORPORATED, priority 2019, dated 2026).

This assay has as its system PK1 neuroblastoma cells treated with TPrP. The conditions noted are these: @ 6.4 μM.

In the case of `COc1cccc(Nc2nnc(Cc3ccncc3)c3ccccc23)c1`, the neuroprotection was 44%.
